# PSTVd loop 27 mutant pool in Nicotiana benthamiana

Source: Wu et al. 2024 (doi:10.1371/journal.ppat.1012142), supplementary data.

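Three N. benthamiana plants were inoculated with the whole mutant pool. Progeny were sequenced from the inoculated region (day 5), the margin of the inoculated leaf (day 10) and systemic leaves (day 12).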

Region: loop 27 of PSTVd (intermediate strain), 5' to 3', with the closing base pair. Wild type: UUUUCA. Varied positions (N): UNNNNA.

Numbers give reads per thousand; 0 = not seen among the reads, higher = more abundant.
Each value is the mean of three plants.
"Pool" is the share in the plasmid pool used as inoculum, on the same scale.
The inoculated region was read from the minus strand, the other sites from the plus strand.
For reference, wild type rose from 39.4 per thousand in the pool to 155, 124, 130 (inoculated region), 823, 907, 920 (leaf margin) and 805, 787, 933 (systemic leaves).
The authors trace changes outside the varied positions to PCR and sequencing errors or to mutation in the plant; presence does not show that a variant is infectious alone.
Samples held 30,013 to 65,426 reads, so the smallest values rest on one or two reads.

| sequence | pool | inoculated region | leaf margin | systemic leaves |
|---|---|---|---|---|
| UCCUAA | 2.57 | 1.49 | 0.193 | 0 |
| UAUCGA | 2.44 | 2.13 | 0.201 | 0.0289 |
| UUUUGA | 5.72 | 12.4 | 1.38 | 0.328 |
| UAGGUA | 7.21 | 6.91 | 0.463 | 0.107 |
| UUGGGA | 8.04 | 2.26 | 0.363 | 0.0117 |
| GUUGGA | 0.0136 | 0 | 0 | 0 |
| UGCAGA | 2.17 | 3.24 | 0.100 | 0.0552 |
| UUCGUA | 5.69 | 3.97 | 0.0701 | 0.0403 |
| UUGACA | 1.30 | 2.13 | 0.303 | 0.0638 |
| UGUAAA | 6.06 | 7.79 | 0.690 | 0.144 |
| UGCUCC | 0.394 | 0.129 | 0 | 0 |
| UAUGAA | 5.39 | 3.97 | 0.998 | 0.143 |
| UGAGAA | 4.58 | 0.967 | 0.0873 | 0.0236 |
| GUUUGA | 0.0136 | 0.0122 | 0 | 0 |
| UUGCCA | 1.47 | 0.599 | 0.0399 | 0.0343 |
| UACAUA | 1.33 | 0.283 | 0 | 0 |
| UCGUUA | 4.25 | 2.57 | 0.258 | 0.0406 |
| UCUGCA | 1.82 | 0.935 | 0.0767 | 0.0167 |
| AUCGGA | 0.0136 | 0.0181 | 0 | 0 |
| UUUCCG | 0.407 | 0.164 | 0.0101 | 0.0117 |
| UUUCAC | 0.462 | 0.703 | 0.685 | 0.149 |
| UACCGA | 1.41 | 1.62 | 0.0258 | 0.0170 |
| UGGUCA | 3.72 | 1.79 | 0.582 | 0.141 |
| UGAAAA | 3.35 | 2.06 | 0.155 | 0.0400 |
| UUCGAC | 0.598 | 0.309 | 0.121 | 0.00656 |
| UAUAGA | 2.13 | 0.808 | 0.0611 | 0.0529 |
| UGAGCA | 5.65 | 2.07 | 0.0676 | 0.0879 |
| UGUCCA | 1.05 | 0.577 | 0.0101 | 0 |
| UCAUAA | 2.39 | 0.592 | 0.0948 | 0.0313 |
| UCUACA | 0.394 | 0.611 | 0.0202 | 0.0323 |
| UGGCCA | 3.15 | 0.975 | 0.0672 | 0.0255 |
| AUAAAA | 0.0136 | 0 | 0 | 0 |
| ACACAA | 0.0136 | 0 | 0 | 0 |
| UCUUAC | 0.231 | 0.0403 | 0 | 0.00509 |
| UGGUUA | 5.76 | 10.7 | 1.16 | 0.228 |
| CAAGGA | 0.163 | 0.0529 | 0 | 0 |
| UGCGGA | 5.55 | 2.52 | 0.111 | 0.0641 |
| UGGGAC | 0.0543 | 0.0126 | 0 | 0 |
| UAUUAA | 3.82 | 5.00 | 0.602 | 0.137 |

Extract of 5 entries:

{"sequence": "UAUGAA", "pool": "5.39", "inoculated region": 3.97, "leaf margin": 0.998, "systemic leaves": 0.143}
{"sequence": "UUUCCG", "pool": "0.407", "inoculated region": 0.164, "leaf margin": 0.0101, "systemic leaves": 0.0117}
{"sequence": "UCUGCA", "pool": "1.82", "inoculated region": 0.935, "leaf margin": 0.0767, "systemic leaves": 0.0167}
{"sequence": "UGGGAC", "pool": "0.0543", "inoculated region": 0.0126, "leaf margin": 0, "systemic leaves": 0}
{"sequence": "UGAGAA", "pool": "4.58", "inoculated region": 0.967, "leaf margin": 0.0873, "systemic leaves": 0.0236}